Reference: patent publication US8168792B2, “Heterocyclic antiviral compounds” (Roche Palo Alto LLC, priority 2009, dated 2012)

Molecular target: HCV polymerase (NS5B570n-Con1) (Hepatitis C virus genotype 1b, UniProt Q9WMX2)
Test: HCV NS5B RNA polymerase activity (incorporation of radiolabeled nucleotide into RNA)
Type: biochemical, HCV Con1 strain
Settings: read-out: IC50 (μM) HCV Pol; HCV polymerase assay in Example 11
Protocol: The enzymatic activity of HCV polymerase (NS5B570n-Con1) was measured as the incorporation of radiolabeled nucleotide monophosphates into acid insoluble RNA products. Unincorporated radio labeled substrate was removed by filtration and scintillant was added to the washed and dried filter plate containing radio labeled RNA product. The amount of RNA product generated by NS5B570-Con1 at the end of the reaction was directly proportional to the amount of light emitted by the scintillant.
The N-terminal 6-histidine tagged HCV polymerase, derived from HCV Con1 strain, genotype 1b (NS5B570n-Con1) contains a 21 amino acid deletion at the C-terminus relative to the full-length HCV polymerase and was purified from E. coli strain BL21(DE) pLysS. The construct, containing the coding sequence of HCV NS5B Con1 (GenBank accession number AJ242654) was inserted into the plasmid construct pET17b, downstream of a T7 promoter expression cassette and transformed into E. coli. […]
The amount of light emitted from the scintillant was converted to counts per minute (CPM) on a Topcount® plate reader (Perkin-Elmer, Energy Range: Low, Efficiency Mode Normal, Count Time: 1 min, Background Subtract: none, Cross talk reduction: Off).
Data was analyzed in Excel® (Microsoft) and ActivityBase® (Idbs®). […] All data was expressed as a percentage of the positive control. […]

Compound | IC50 [µM]
CC(C)(C)c1cc(-c2ccc[nH]c2=O)c2c(c1)C(Cc1ccc(NS(C)(=O)=O)cc1)OC2=O (centres unmarked) | 0.027
CC(C)(C)c1cc2c(c(-c3ccc[nH]c3=O)c1)C(=O)O/C2=C\c1ccc(NS(C)(=O)=O)cc1 | 0.033
